This is a selection; strong and weak results do not stand in their true shares. Activity calls are given as the source filed them.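 How the source made its calls: active means inhibition averaging 50% or more, tested at 20 µM; inactive means the rest.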
Tested on: diaphorase (Clostridium kluyveri)
Assay: diaphorase inhibitors and chemical oxidizers, confirmation, counter-screen for P. falciparum G6PD inhibitor project, biochemical, fluorescence intensity, 30 µM NADPH (AID 504863);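 further: 0% = DMSO with enzyme and 100% = DMSO wells lacking diaphorase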
Conditions: Diaphorase/resazurin coupled assay, resorufin fluorescence, at 20 µM, active compounds read high

In the case of `O=[N+]([O-])c1cc([N+](=O)[O-])c(Nc2ccccn2)c([N+](=O)[O-])c1`, the inhibition is reported as active: 51%.

From PubChem BioAssay AID504863 (Sanford-Burnham Center for Chemical Genomics, 2011)
